Data source: PubChem BioAssay AID624099 (ICCB-Longwood, 2012)
Test: 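Host factors E2 relies on to silence an HPV18 LCR reporter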 (primary screen). System: human C33A cervical carcinoma cells (HPV-negative) stably expressing BPV1 E2 and an HPV18 LCR luciferase reporter. Knock-down reagent: siRNA pool against human genes, 40 nM. Duration: 72 h. Read-out: 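HPV18 LCR reporter light per well, converted to plate-wise z-scores that exclude control wells, and averaged over triplicate plates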. Direction: mean z-score and z-score: higher = stronger reporter signal, weaker E2 silencing. Rule for the call: 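Mean z ≥ 2 together with z ≥ 2 in two or more of the three replicates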.
The deposit covers about 21,000 reagents; this is an unselected part. In the full data, 497 (2.4%) are marked active. 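Higher z means weaker E2 silencing; only reporter increases were scored, and knock-downs that hurt cell survival may mask genuine repressor factors.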 A number with no mark means an inactive call. Reagent sequences are not shown.

gene knocked down | mean z-score | z-score, replicate A | z-score, replicate B | z-score, replicate C
MREG | -0.06 | -0.21 | -0.34 | 0.39
KCNN1 | 0.85 | 0.82 | 0.85 | 0.87
SLC30A4 | 0.1 | 0.01 | 0.28 | 0.02
SNCG | 0.4 | 0.55 | 0.25 | 0.4
LRRFIP2 | 1.3 | 1.37 | 1.31 | 1.22
ZSWIM4 | -1.42 | -1.26 | -1.3 | -1.68
RTBDN | 0.17 | 0.05 | 0.18 | 0.28
BTNL8 | -1.18 | -1.15 | -1.32 | -1.08
RPL10P16 | -5.72 | -5.95 | -5.58 | -5.64
LOC402485 (retired record) | -0.17 | -0.09 | -0.37 | -0.06
TAAR6 | -0.2 | 0.06 | -0.49 | -0.18
OR2J3 | 0.78 | 0.36 | 0.59 | 1.4
DYNC2I1 | 0.88 | 1.29 | 0.75 | 0.6
RRP7A | -0.49 | -0.63 | -0.54 | -0.3
MAPKAP1 | 1.05 | 1.01 | 1.19 | 0.94
TAPT1 | -0.76 | -0.86 | -0.9 | -0.51
PAIP2B | -0.26 | -0.48 | -0.23 | -0.07
CLVS2 | -0.12 | 0.09 | -0.16 | -0.3
CHPF | 0.02 | 0.17 | 0.19 | -0.3
KIF14 | -1.2 | -1.18 | -1.23 | -1.18
ASAP1 | -0.33 | -0.51 | -0.15 | -0.32
IDH3B | 0.43 | 0.96 | 0.11 | 0.21
LOC392790 (retired record) | 0.32 | 0.1 | -0.05 | 0.92
SPRTN | 0.5 | 0.7 | 0.66 | 0.15
BCL2L1 | -1.34 | -1.13 | -1.4 | -1.48
PGA5 | 0.11 | 0.24 | 0.02 | 0.06
SWSAP1 | 0.53 | 0.77 | 0.48 | 0.33
LOC390736 (retired record) | 0.25 | 0.24 | 0.04 | 0.48
TSKS | 0.52 | 0.35 | 0.57 | 0.64
FAM124B | -0.37 | -0.66 | -0.1 | -0.35
NPVF | 0.1 | 0.08 | -0.06 | 0.3
ASS1 | -0.41 | -0.13 | -0.17 | -0.92
ADAMTS18 | 0.38 | 0.14 | 0.45 | 0.56
SSB | -0.52 | -0.35 | -0.46 | -0.74
EAF1 | -0.97 | -1.36 | -1.21 | -0.35
OR7D2 | 0.08 | 0.25 | 0.02 | -0.02
LOC389550 (retired record) | 2.86 (active) | 1.99 | 3.3 | 3.28
NXF3 | -1.68 | -1.93 | -1.7 | -1.41
LINC00482 | -0.89 | -0.94 | -1.12 | -0.62

Sorted by “z-score, replicate C” (low to high): some entries from above.
gene knocked down | mean z-score | z-score, replicate A | z-score, replicate B | z-score, replicate C
SSB | -0.52 | -0.35 | -0.46 | -0.74
EAF1 | -0.97 | -1.36 | -1.21 | -0.35
ADAMTS18 | 0.38 | 0.14 | 0.45 | 0.56
